Measured values from several laboratories, pooled; numbers as filed in NIAID ChemDB.

All rows: tests in culture; organism: Candida albicans; measure: MIC

Blank or dashed fields: not listed here. Neighbouring rows are from separate reports. Two numbers with a dash give a range or band.

compound	strain	read by	value
CCCCCCCC(O)CC(=O)CCc1ccc(O)c(OC)c1	CN1A		750 µg/mL
CC(C)(O)c1cn(-c2ccc(Cl)cc2)nn1	URM 4817	broth dilution	128 µg/mL
CC(C)=CCc1c(O)c(C)c2c(c1O)C(=O)C[C@@H](c1ccc(O)cc1)O2			100 µg/mL
CCCCCCCCCCCCCCCC(=O)NCCCN	ATCC 18804	broth dilution	4 µg/mL
c1ccc(N2CCC(n3cc(CN4CCc5sccc5C4)nn3)CC2)cc1	NCIM3471	agar	50 µg/mL
Cn1ncc(C(c2ccccc2)n2ccnc2)c1-c1ccccc1			>200 µM
Cc1nc(N)nc(N)c1C#CC(C)C			0.8 µg/mL
CCCCCC/C=C/CCCCC/C=C/[C@@H](C)[C@H](CO[C@@H]1O[C@H](CO)[C@@H](O)[C@H](O)[C@H]1O)NC(=O)[C@H](O)CCCCCCCCCCCCCC	ATCC 2091		10 µg/mL
COCCOCCOCCOCCOCCOCCNC(=O)[C@H]1[C@@H]2C[C@@H](O[C@@H]3O[C@H](C)[C@@H](O)[C@H](N)[C@@H]3O)/C=C/C=C/C=C/C=C/C=C/C=C/C=C/[C@H](C)[C@@H](O)[C@H](C)[C@H](C)OC(=O)C[C@H](O)C[C@H](O)[C@@H](O)CC[C@H](O)C[C@H](O)C[C@](O)(C[C@@H]1O)O2	Isolate 92-1341		3.03 µg/mL
O=c1[nH]nc(-c2ccc([N+](=O)[O-])cc2)[nH]1	ATCC16231		>250 µg/mL
Nc1[nH]c(=O)ncc1F	1001		1.56 µg/mL
CCn1c(-c2ccc(N=Nc3c(C)[nH]n(-c4ccccc4)c3=O)cc2)n[nH]c1=S	ATCC 2091		125 µg/mL
N=C(N)c1ccc(OCCCCCOc2ccc(C(=N)N)cc2)cc1	ATCC 10231		100 µg/mL
C[C@H]1[C@H](O)[C@@H](C)/C=C/C=C/C=C/C=C/C=C/C=C/C=C/[C@H](O[C@@H]2O[C@H](C)[C@@H](O)[C@H](N)[C@@H]2O)C[C@@H]2O[C@](O)(C[C@@H](O)C[C@@H](O)CC[C@H](O)[C@@H](O)C[C@@H](O)CC(=O)O[C@H]1C)C[C@H](O)[C@H]2C(=O)O	ATCC 90028		5 µg/mL
CCCCCOc1ccc(-c2ccc(-c3ccc(C(=O)N[C@H]4C[C@@H](O)[C@@H](O)NC(=O)[C@@H]5[C@@H](O)[C@@H](C)CN5C(=O)[C@H]([C@H](C)O)NC(=O)[C@H]([C@H](O)[C@@H](O)c5ccc(O)cc5)NC(=O)[C@@H]5C[C@@H](O)CN5C(=O)[C@H]([C@H](C)O)NC4=O)cc3)cc2)cc1	Y58		0.04 µg/mL
CCc1nc(N)nc(N)c1-c1ccc(Cl)cc1			50 µg/mL
CCc1c(C(c2ccccc2)n2ccnc2)cnn1-c1ccccc1			>200 µM
CCOC(=O)c1c(C)[nH]c(O)c1C=C(C(=O)O)C(=O)O			>100 µg/mL
C=C(CF)CN1C[C@H](OC[C@@]23C[C@@H]4[C@H](C)CC[C@H]4[C@@]4(C=O)C[C@@H]2CC(C(C)C)[C@@]34C(=O)O)O[C@H](C)C1	CL-245 (fluconazole-resistant)		≤0.001 µg/mL
CCOC(=O)Cc1nnnn1C(=S)c1ccc(O)cc1O	10 isolates		25 µg/mL
CCC(C)n1ncn(-c2ccc(N3CCN(c4ccc(OC[C@H]5CO[C@](Cn6cncn6)(c6ccc(Cl)cc6Cl)O5)cc4)CC3)cc2)c1=O	A28235		0.03 µg/mL
Cc1cc2c3c(N)nc(N)nc3ccc2n1C			1.6 µg/mL
CCCc1c(C(c2ccccc2)n2ccnc2)cnn1-c1ccccc1			>200 µM
CCCCn1nc(-c2ccccc2)n(NC)c1=O	ATCC16231		>250 µg/mL
CCS(=O)(=O)C(F)(F)C(O)(Cn1cncn1)c1ccc(F)cc1F	IFM 40009		0.063 µg/mL
CC(=O)OCCn1c(Cc2ccc(C)cc2)n[nH]c1=O	ATCC16231		>250 µg/mL
C=C1CC[C@@H]2C[C@H]1C2(C)C.C[C@@H]1[C@H](O)[C@@H](C)/C=C/C=C/C=C/C=C/C=C/C=C/C=C/[C@H](O[C@@H]2O[C@H](C)[C@@H](O)[C@H](N)[C@@H]2O)C[C@@H]2O[C@](O)(C[C@@H](O)C[C@@H](O)[C@H](O)CC[C@@H](O)C[C@@H](O)CC(=O)O[C@H]1C)C[C@H](O)[C@H]2C(=O)O	ATCC 10231	broth dilution	187 µg/mL
Cc1[nH]n(-c2ccccc2)c(=O)c1N=Nc1ccc(-c2n[nH]c(=O)n2-c2ccccc2)cc1	ATCC 2091		600 µg/mL
CCCCCCCCCCCCCCCC1=NCCCC1	ATCC 90028		20 µg/mL
CNn1c(-c2ccc(C)cc2)nn(C)c1=O	ATCC16231		>250 µg/mL
O=[N+]([O-])c1c[nH]c(Cl)c1Cl			100 µg/mL
Oc1ccc(C(=S)N2C=NC(Cl)C2Cl)c(O)c1	ATCC 10231		50 µg/mL
CCC(C)CC(C)CCCCCCCCC(=O)N[C@H]1C[C@@H](O)[C@@H](OCCN)NC(=O)[C@@H]2C[C@@H](O)CN2C(=O)[C@H]([C@H](O)CC(N)=O)NC(=O)[C@H]([C@H](O)[C@@H](O)c2ccc(O)cc2)NC(=O)[C@@H]2C[C@@H](O)CN2C(=O)[C@H]([C@@H](C)O)NC1=O	40 isolates		32 µg/mL
Oc1ccccc1Nc1ccc2nc3ccccc3nc2c1			64 µg/mL
C=C(C)CN1C[C@H](OC[C@@]23C[C@@H]4[C@H](C)CC[C@H]4[C@@]4(C=O)C[C@@H]2CC(C(C)C)[C@@]34C(=O)O)O[C@H](C)C1	CL-245 (fluconazole-resistant)		0.002 µg/mL
CC[C@@H](C)[C@H](OC(=O)/C=C/c1ccccc1)[C@H](C)[C@H](O)C/C=C/C=C/C(N)=O			0.5 µg/mL
c1ccc(C(c2cnn(-c3ccccc3)c2)n2ccnc2)cc1			>200 µM
COc1ccc(CN2C[C@H](OC[C@@]34C[C@@H]5[C@H](C)CC[C@H]5[C@@]5(C=O)C[C@@H]3CC(C(C)C)[C@@]45C(=O)O)O[C@H](C)C2)cc1	CL-236		≤0.001 µg/mL
CCCCCCCC/C=C\CC/C=C/[C@H]1C[C@H]([C@](O)(CC(=O)O)C(=O)O)C(=O)O1			>312 µM
CCC(C)CC(C)CCCCCCCCC(=O)N[C@@H]1C[C@@H](O)[C@@H](O)NC(=O)[C@@H]2[C@@H](O)CCN2C(=O)[C@H]([C@@H](O)CCN)NC(=O)[C@H]([C@H](O)[C@@H](O)c2ccc(O)cc2)NC(=O)[C@@H]2C[C@@H](O)CN2C(=O)[C@H]([C@H](C)O)NC1=O	40 isolates		0.12–0.5 µg/mL
CCOC(=O)c1c(C)[nH]c(O)c1/C=N/Nc1ccccc1			>100 µg/mL
Cc1nc(N)nc(N)c1C#CC1CCCC1			0.2 µg/mL
CCCCCCCCCCCCCCCCCC1=NCCCC1	ATCC 90028		20 µg/mL
Cc1c(O)cccc1C(=O)N[C@@H](CSc1ccccc1)[C@H](O)CN1C[C@H]2CCCC[C@H]2C[C@H]1C(=O)NC(C)(C)C	I42A		64 µg/mL
Cc1[nH]n(-c2ccccc2)c(=O)c1N=Nc1ccc(C(=O)N/N=C/c2ccc(F)cc2)cc1	ATCC 2091		125 µg/mL
CC1(C)S[C@@H]2[C@H](NC(=O)Cc3ccccc3)C(=O)N2[C@H]1C(=O)O	ATCC 10231		6.3 µg/mL
O=c1[nH]nc(-c2ccccc2)n1-c1cccnc1	ATCC16231		>250 µg/mL
CCOC(=O)C1=C(C)NC(=O)C1			>100 µg/mL
CNn1c(-c2ccc(C)cc2)nn(Cc2ccccc2)c1=O	ATCC16231		>250 µg/mL
Cc1[nH]n(CCO)c(=O)c1N=Nc1ccc(-c2n[nH]c(=O)n2-c2ccccc2)cc1	ATCC 2091		62.5 µg/mL

A second listing of 7 rows from above:

compound | strain | read by | value
C=C1CC[C@@H]2C[C@H]1C2(C)C.C[C@@H]1[C@H](O)[C@@H](C)/C=C/C=C/C=C/C=C/C=C/C=C/C=C/[C@H](O[C@@H]2O[C@H](C)[C@@H](O)[C@H](N)[C@@H]2O)C[C@@H]2O[C@](O)(C[C@@H](O)C[C@@H](O)[C@H](O)CC[C@@H](O)C[C@@H](O)CC(=O)O[C@H]1C)C[C@H](O)[C@H]2C(=O)O | ATCC 10231 | broth dilution | 187 µg/mL
CCOC(=O)c1c(C)[nH]c(O)c1C=C(C(=O)O)C(=O)O |  |  | >100 µg/mL
Cc1[nH]n(-c2ccccc2)c(=O)c1N=Nc1ccc(C(=O)N/N=C/c2ccc(F)cc2)cc1 | ATCC 2091 |  | 125 µg/mL
c1ccc(N2CCC(n3cc(CN4CCc5sccc5C4)nn3)CC2)cc1 | NCIM3471 | agar | 50 µg/mL
CCC(C)n1ncn(-c2ccc(N3CCN(c4ccc(OC[C@H]5CO[C@](Cn6cncn6)(c6ccc(Cl)cc6Cl)O5)cc4)CC3)cc2)c1=O | A28235 |  | 0.03 µg/mL
CCCCCCCCCCCCCCCC(=O)NCCCN | ATCC 18804 | broth dilution | 4 µg/mL
Oc1ccccc1Nc1ccc2nc3ccccc3nc2c1 |  |  | 64 µg/mL